Pooled drug test results. Numbers come from NIAID ChemDB, via PubChem.

All rows: growth or infection tests; agent: HIV-1; cells: CEM + CEM-SS; endpoint: EC50

Blank or dashed fields: not listed here. a–b is a range or a potency band. Conditions beyond the fields shown may differ between rows. ECn: concentration that inhibits the pathogen or its effect by n%.

compound	strain	changes	method	result
CC(C)=CCOc1cc(NC(=S)c2ccoc2C)ccc1Cl	NL4-3	RT-K101E	p24	0.04 µM
Cc1occc1C(=S)Nc1ccc(Cl)c(C(=O)OCC(F)(F)F)c1	IIIB	-	cytopathic effect / XTT	0.05 µM
Cc1cn([C@H]2C[C@H](N=[N+]=[N-])[C@@H](CO)O2)c(=O)[nH]c1=O	IIIB	-	cytopathic effect / MTS	0.003 µM
CN(C)C1=C(C#N)/C(=C2/C(C#N)=C(N(C)C)N(c3ccc([N+](=O)[O-])cc3)c3c2n(C)c2ccccc32)c2c(c3ccccc3n2C)N1c1ccc([N+](=O)[O-])cc1	Calanolide-resistant (RT T139I)	RT-T139I	cytopathic effect / XTT	1.1–1.14 µM
COc1ccccc1CNC(=O)C1=Cc2ccncc2CC1	RF	-	cytopathic effect / MTT	>181 µM
COc1cc(-c2ccc(N=Nc3ccc4c(S(=O)(=O)O)cc(S(=O)(=O)O)c(N)c4c3O)c(OC)c2)ccc1N=Nc1ccc2c(S(=O)(=O)O)cc(S(=O)(=O)O)c(N)c2c1O	RF	-	cytopathic effect / XTT	1.7 µM
Cc1occc1C(=S)Nc1ccc(Cl)c(C(=O)OCC2CC2)c1	4xAZT/L100I(RT-D67N K70R T215Y K219Q L100I)	RT-D67N K70R L100I T215Y K219Q	cytopathic effect / XTT	2 µM
CC1(C)OC(c2cnn(-c3ccccc3)n2)C(C(O)CN2CCC(Cc3ccccc3)CC2)O1	IIIB	-	cytopathic effect / MTS	>100 µM
Cn1cc(NC(=O)Nc2cc(C(=O)Nc3cc(C(=O)Nc4cc(S(=O)(=O)O)c5cc(S(=O)(=O)O)cc(S(=O)(=O)O)c5c4)n(C)c3)n(C)c2)cc1C(=O)Nc1cc(C(=O)Nc2cc(S(=O)(=O)O)c3cc(S(=O)(=O)O)cc(S(=O)(=O)O)c3c2)n(C)c1	G762-3	-	cytopathic effect / XTT	0.2 µM
CC(C)Oc1ccccc1CNC(=O)c1ccc2cnccc2n1	IIIB	-	cytopathic effect / MTT	>31 µM
FC(F)(Sc1ccccn1)c1nc2ccccc2o1	RF	-	cytopathic effect / XTT	29.2 µM
Cn1cc([N+](=O)[O-])cc1C(=O)Nc1cc(C(=O)Nc2ccc(S(=O)(=O)O)c3cc(S(=O)(=O)O)ccc23)n(C)c1	RF	-	cytopathic effect / XTT	>200 µM
O=C(NCCc1ccccc1)C1=Cc2ccncc2CC1	IIIB	-	cytopathic effect / MTT	>34 µM
Cn1nc(NC(=O)c2cc(NC(=O)Nc3cc(C(=O)Nc4cc(C(=O)Nc5ccc6cc(S(=O)(=O)O)cc(S(=O)(=O)O)c6c5)n(C)n4)n(C)n3)nn2C)cc1C(=O)Nc1ccc2cc(S(=O)(=O)O)cc(S(=O)(=O)O)c2c1	RF	-	cytopathic effect / XTT	7.5 µM
Cc1ccnc(SC(F)(F)c2nc3ccccc3o2)n1	RF	-	cytopathic effect / XTT	0.0646 µM
C=CCO/N=C/c1cc(NC(=S)c2ccoc2C)ccc1Cl	4xAZT(RT-D67N K70R T215Y K219Q)	RT-D67N K70R T215Y K219Q	cytopathic effect / XTT	0.03 µM
CCCc1cc(=O)oc2c3c(c4c(c12)OC(C)(C)CC4)O[C@H](C)[C@@H](C)C3=O	SK1	-	cytopathic effect / XTT	0.62 µM
Cn1cc(NC(=O)c2cc(NC(=O)Nc3cc(C(=O)Nc4cc(C(=O)Nc5ccc6cc(S(=O)(=O)O)cc(S(=O)(=O)O)c6c5)n(C)c4)n(C)n3)nn2C)cc1C(=O)Nc1ccc2cc(S(=O)(=O)O)cc(S(=O)(=O)O)c2c1	RF	-	cytopathic effect / XTT	7.9 µM
FC(F)(Sc1ncccn1)c1nc2ccccc2o1	RF	-	cytopathic effect / XTT	3.14 µM
Cn1cc(NC(=O)Nc2cc(C(=O)Nc3cc(C(=O)Nc4ccc(P(=O)(O)O)c5cc(P(=O)(O)O)ccc45)n(C)c3)n(C)c2)cc1C(=O)Nc1cc(C(=O)Nc2ccc(P(=O)(O)O)c3cc(P(=O)(O)O)ccc23)n(C)c1	IIIB	-	cytopathic effect / XTT	1.3 µM
CC(C)=CCOc1cc(NC(=S)c2ccsc2C)ccc1Cl	Costatolide-resistant (RT Y188H)	RT-Y188H	cytopathic effect / XTT	0.07 µM
Cc1occc1C(=S)Nc1ccc(Cl)c(C(=O)OC(C)C)c1	IIIB	-	cytopathic effect / XTT	0.01 µM
CC(C)=CCN1Cc2cccc3[nH]c(=O)n(c23)CC1C	IIIB	-	cytopathic effect / XTT	0.1 µM
CCCc1cc(=O)oc2c3c(c4c(c12)OC(C)(C)CC4)O[C@@H](C)[C@H](C)[C@@H]3O	SK1	-	XTT	0.3 µM
CC=CCOc1cc(NC(=S)c2ccoc2C)ccc1OC	4XAZT/Y181C (RT D67N K70R Y181C T215Y K219Q)	RT-D67N K70R Y181C T215Y K219Q	cytopathic effect / XTT	4.2 µM
CN1N=C(N)c2cn([C@@H]3O[C@H](COP(=O)(O)O)[C@@H](O)[C@H]3O)c3ncnc1c23	MN	-	cytopathic effect / XTT	0.02 µM
CC1=C(C(=S)Nc2ccc(Cl)c(C(=O)OC(C)C)c2)SCCO1	RF	-	cytopathic effect / XTT	0.024 µM
CC1(C)OC(c2cnn(-c3ccccc3)n2)C(C(O)CN2CCCC2)O1	IIIB	-	cytopathic effect / MTS	>100 µM
CC(C)=CCOc1cc(NC(=S)c2ccoc2C)ccc1Cl	UC82-R (RT-Y181C)	RT-Y181C	cytopathic effect / XTT	1.1 µM
COc1cc(-c2ccc(N=Nc3ccc4c(S(=O)(=O)O)cc(S(=O)(=O)O)c(N)c4c3O)c(OC)c2)ccc1N=Nc1ccc2c(S(=O)(=O)O)cc(S(=O)(=O)O)c(N)c2c1O	LAV	-	RT activity	1.9 µM
Cc1occc1C(=S)Nc1ccc(Cl)c(/C=N/OC(C)(C)C)c1	NL4-3	RT-V106A	cytopathic effect / XTT	2.7 µM